Compound potency records, mixed from different reports. Data source: NIAID ChemDB in PubChem.

Shared fields: toxicity to cultured cells; endpoint: CC50

Blank or dashed fields: not listed here. Two numbers with a dash give a range or band. CCn: concentration that lowers growth or viability of the cells by n%. Conditions beyond the fields shown may differ between rows.

| structure | cells | read by | value |
|---|---|---|---|
| Nc1nc(N)c2cc3c(nc2n1)CCc1ccccc1-3 | ACHN | MTT | 32.4 µM |
| CC(C)N(Cc1cccc(OCCCCCC(=O)OC(=O)O)c1)C(=O)c1ccc(-c2cccc(OC(F)(F)F)c2)cc1 | BJ |  | >20 µM |
| CCOC(=O)c1c(C)nc(OCCCNc2ccnc3cc(Cl)ccc23)nc1-c1ccccc1 | MDCK cells | MTS | 21.1 µM |
| CN(C)CC1CC12C1CC3CC(C1)CC2C3 | HEF |  | 95 µg/mL |
| CCOC(=O)C1=C(CN2CC(F)(F)[C@H]3[C@@H]2CCN3C[C@@](C)(O)C(=O)O)NC(c2nccs2)=N[C@H]1c1cccc(F)c1F | HepG2.2.15 | WST / absorbance | >50 µM |
| CC(C)N(Cc1cccc(OCCCCCC(=O)OC(=O)O)c1)C(=O)c1ccc(-c2cccc3ccccc23)cc1 | BJ |  | >20 µM |
| O=c1oc(-c2ccc(OCc3ccccn3)cc2)cc(O)c1SCCc1ccccc1 | CH-1 |  | 13.6 µM |
| CCCCOc1nc(N)c2c(n1)N(Cc1cccc(CN3CCCC3)c1)CC(=O)N2 | Macrophage | luminescence | >10 µM |
| CN(C)C1CC12C1CC3CC(C1)CC2C3 | HEF |  | >200 µg/mL |
| Cc1ccc2c(c1)c(Sc1ccc(Br)cc1)cc(=O)n2C | Huh-Luc-Neo |  | 10–100 µM |
| CCN(CC)C(=O)OCC1CN(Cc2cc(OC)c(OC)c(OC)c2)CCN1Cc1cc(OC)c(OC)c(OC)c1 | MDM | neutral red | >10 µM |
| CC(=O)Nc1ccc(Sc2cc(=O)n(C)c3ccccc23)cc1 | Huh-Luc-Neo |  | >100 µM |
| CC(C)N(Cc1cccc(OCCCCCC(=O)OC(=O)O)c1)C(=O)c1ccc(-c2ccncc2)cc1 | HEK 293 |  | >20 µM |
| CCN(CC)C(=O)OCC1CN(C(=S)c2cc(OC)c(OC)c(OC)c2)CCN1C(=O)c1cc(OC)c(OC)c(OC)c1 | MDM | neutral red | >10 µM |
| COC(=O)c1c(C)nc(NCCCNc2ccnc3cc(Cl)ccc23)nc1-c1ccccc1 | MDCK cells | MTS | 1.7 µM |
| CC1S/C(=N/N=C2\C(=O)Nc3ccc([N+](=O)[O-])cc32)N(c2ccc(F)cc2)C1=O | MDBK |  | 3 µg/mL |
| Clc1ccc([C@@H](CCn2ccnc2)Oc2ccccc2)cc1 | Human histiocytic lymphoma U937 cells |  | 209 µM |
| Cn1c(=O)cc(Sc2ccc(Cl)cc2)c2cc(F)ccc21 | Huh-Luc-Neo |  | >100 µM |
| Nc1nc2c(ncn2C[C@@H]2CO[C@H](P(=O)(O)O)O2)c(=O)[nH]1 | FLOW 2002 |  | >100 µg/mL |
| OC[C@H]1CC(n2cnc3c(NC4CC4)ncnc32)C[C@@H]1CO | E6SM |  | >200 µg/mL |
| Cn1c(=O)cc(Sc2ccc(NC(=O)[C@@H](NC(=O)OC(C)(C)C)C3CCCCC3)cc2)c2ccccc21 | Huh-Luc-Neo |  | >100 µM |
| CCOC(=O)c1c(CS(=O)(=O)c2ccccc2)n(C)c2ccc(CN3CCCNCC3)cc12 | Huh7.5 | resazurin | >50 µM |
| CCOC(=O)CCCCCOc1cccc(CN(C(=O)c2ccc(-c3ccncc3)cc2)C(C)C)c1 | RAJI |  | >20 µM |
| CCN1CCCC12C1CC3CC(C1)CC2C3 | HEF |  | >200 µg/mL |
| CCOC(=O)c1c(C)n(C)c2ccc(CN3CCCC3)cc12 | Huh7.5 | resazurin | >50 µM |
| CCOC(=O)C1=C(CN2CC(F)(F)[C@@H]3[C@H]2CON3CC[C@@](C)(OC)C(=O)O)NC(c2nccs2)=N[C@H]1c1ccc(F)c(F)c1Cl | HepG2.2.15 | WST / absorbance | >50 µM |
| O=[N+]([O-])c1ccc(NC(=S)N=Nc2c(O)[nH]c3ccc([N+](=O)[O-])cc23)cc1 | MDBK |  | 22 µg/mL |
| CCN(CC)C(=O)OCC1CN(C(=O)c2ccc(OC)cc2OC)CCN1C(=O)c1ccc(OC)cc1OC | MDM | neutral red | >100 µM |
| CCC(C)CC(C)/C=C(C)/C=C/C=C/C(O)=C1\C(=O)NC(C(O)c2ccc(O)cc2)C1=O | A549 human lung carcinoma cells | MTT | >120 µM |
| CCOC(=O)c1c(C)nc(NCCCCNc2ccnc3cc(Cl)ccc23)nc1-c1ccc(F)cc1 | MDCK cells | MTS | 11.4 µM |
| Cc1ccc(Sc2cc(=O)n(C)c3ncccc23)cc1 | Huh-Luc-Neo |  | >100 µM |
| CCOC(=O)C1=C(CN2CC(F)(F)[C@H]3[C@@H]2CCN3CC[C@](C)(O)C(=O)O)NC(c2nccs2)=N[C@H]1c1ccc(F)c(F)c1C | HepG2.2.15 | WST / absorbance | 90.6 µM |
| CC1S/C(=N/N=C2\C(=O)Nc3ccc([N+](=O)[O-])cc32)N(c2ccccc2)C1=O | MDBK |  | 7 µg/mL |
| Nc1nc2c(ncn2C[C@@H]2CC[C@H](P(=O)(O)O)O2)c(=O)[nH]1 | FLOW 2002 |  | >100 µg/mL |
| CCOC(=O)c1c(CS(=O)(=O)c2ccccc2)n(C)c2ccc(CN(C)C)cc12 | Huh7.5 | resazurin | >50 µM |
| CN[C@@H]1[C@H](O[C@@H]2OC[C@@H](O)[C@H](O)[C@H]2O)[C@@H](O)[C@H](O[C@H]2c3cc(C)c(C(=O)N[C@H](C)C(=O)O)c(O)c3-c3c(cc4c(c3O)C(=O)c3cc(OC)cc(O)c3C4=O)[C@@H]2O)O[C@@H]1C | HCT116 |  | >500 µg/mL |
| CC1(C)[C@H]2CC[C@@]34CC[C@@H](C[C@H]3[C@]2(C)CC[C@@H]1O)C([C@@H](O)CO)C4 | HepG2/ADR | MTT | 15.57 µM |
| CC(=O)O[C@H]1CC[C@@]2(C)[C@@H](CC[C@@]3(C)[C@H]2CC=C2[C@@H]([C@H](C)CC/C=C(\C)C(=O)O)CC[C@@]23C)C1(C)C | 1A2 | XTT | 19.4 µg/mL |
| CCN(CC)C(=O)OCC1CNCCN1C(=O)c1cc(OC)c(OC)c(OC)c1 | MDM | neutral red | >100 µM |
| Nc1nc(N)c2ncn(C[C@H]3CO[C@H](P(=O)(O)O)O3)c2n1 | FLOW 2002 |  | 100 µg/mL |
| O=c1[nH]c(=O)n(C2C[C@H](CO)[C@@H](CO)C2)cc1I | E6SM |  | >200 µg/mL |
| CCOC(=O)CCCCCOc1cccc(CN(C(=O)c2ccc(-c3cc(F)cc(OC)c3)cc2)C(C)C)c1 | BJ |  | >20 µM |
| O=[N+]([O-])c1ccc2[nH]c(O)c(N=NC(=S)Nc3ccc(F)cc3)c2c1 | MDBK |  | 20 µg/mL |
| CCOC(=O)C1=C(CN2CC(F)(F)[C@@H]3[C@H]2CON3C[C@@H](OC)C(C)(C)C(=O)O)NC(c2nccs2)=N[C@H]1c1cccc(F)c1C | HepG2.2.15 | WST / absorbance | >50 µM |
| CNC(=S)N=Nc1c(O)[nH]c2ccc([N+](=O)[O-])cc12 | MDBK |  | >50 µg/mL |
| Cn1c(=O)cc(Sc2ccc(Cl)cc2)c2ccccc21 | Huh-Luc-Neo |  | >100 µM |
| O=c1[nH]c(=O)n([C@@H]2C[C@H](CO)C[C@H]2CO)cc1I | E6SM |  | >200 µg/mL |
| O=[N+]([O-])c1ccc2c(c1)c(N=NC(=S)Nc1ccc(Cl)cc1)c(O)n2CN1CCOCC1 | MDBK |  | 17 µg/mL |
| O=C(Nc1ccc(Cl)cc1)N1CCCC12C1CC3CC(C1)CC2C3 | HEF |  | 150 µg/mL |
| Nc1nc(N)c2cc3c(ccc4ccccc43)nc2n1 | PC-3 | MTT | 4.6 µM |
| CCCC(=O)OCSc1ccc(F)cc1C(=O)NCCC(N)=O | CEM-SS | XTT / absorbance | >5 µM |
| CNC(=S)N=Nc1c(O)n(CN2CCOCC2)c2ccc([N+](=O)[O-])cc12 | MDBK |  | 20 µg/mL |
| CO/C=C(/C(=O)OC)[C@H](C)[C@@H](O)/C=C/c1ccccc1 | HeLa S3 |  | >100 µg/mL |
| CCCN(Cc1cccc(OCCCCCC(=O)OCC)c1)C(=O)c1ccc(Br)cc1 | RAJI |  | >20 µM |
| Cn1c(=O)cc(Sc2ccc(Br)cc2)c2ccccc21 | Huh-Luc-Neo |  | >100 µM |
| CCOC(=O)C1=C(CN2CC(F)(F)[C@@H]3[C@H]2CON3C[C@@H](F)CC(C)(C)C(=O)O)NC(c2nccs2)=N[C@H]1c1cccc(F)c1C | HepG2.2.15 | WST / absorbance | 50 µM |
| CCCCOc1c(OC)cc(C(=O)N2CCN(C(=O)c3cc(OC)c(OC)c(OC)c3)CC2COC(=O)N(CC)CC)cc1OC | MDM | neutral red | >100 µM |
| Nc1nc2c(ncn2C[C@H]2CO[C@H](P(=O)(O)O)O2)c(=O)[nH]1 | FLOW 2002 |  | >100 µg/mL |
| C/C=C(\C)C(=O)OC[C@]1(C)C(=O)CC[C@@]2(C)[C@@H]3CC[C@H]4C[C@@]3(CC[C@@H]21)C[C@@]4(O)CO | HepG2/ADR | MTT | >100 µM |
| CCc1nc2cc3ccccc3cc2cc1C(=O)N[C@@H](C/C=C/C[C@H](NC(=O)c1cc2cc3ccccc3cc2nc1CC)C(=O)N1CCC[C@H]1C(=O)N[C@@H](Cc1ccccc1)C(=O)NCCCN)C(=O)N1CCC[C@H]1C(=O)N[C@@H](Cc1ccccc1)C(=O)NCCCN | HEK293T | WST | ≥60 µM |
| O=[N+]([O-])c1ccc2[nH]c(O)c(N=NC(=S)Nc3ccccc3)c2c1 | MDBK |  | >50 µg/mL |

A second listing of 7 rows from above:

structure	cells	read by	value
O=c1[nH]c(=O)n([C@@H]2C[C@H](CO)C[C@H]2CO)cc1I	E6SM		>200 µg/mL
CN(C)C1CC12C1CC3CC(C1)CC2C3	HEF		>200 µg/mL
Cn1c(=O)cc(Sc2ccc(NC(=O)[C@@H](NC(=O)OC(C)(C)C)C3CCCCC3)cc2)c2ccccc21	Huh-Luc-Neo		>100 µM
O=[N+]([O-])c1ccc2c(c1)c(N=NC(=S)Nc1ccc(Cl)cc1)c(O)n2CN1CCOCC1	MDBK		17 µg/mL
CC(C)N(Cc1cccc(OCCCCCC(=O)OC(=O)O)c1)C(=O)c1ccc(-c2cccc3ccccc23)cc1	BJ		>20 µM
CCOC(=O)C1=C(CN2CC(F)(F)[C@H]3[C@@H]2CCN3CC[C@](C)(O)C(=O)O)NC(c2nccs2)=N[C@H]1c1ccc(F)c(F)c1C	HepG2.2.15	WST / absorbance	90.6 µM
CCOC(=O)C1=C(CN2CC(F)(F)[C@@H]3[C@H]2CON3C[C@@H](OC)C(C)(C)C(=O)O)NC(c2nccs2)=N[C@H]1c1cccc(F)c1C	HepG2.2.15	WST / absorbance	>50 µM